Primary screen of a compound library

Data taken from ChEMBL document CHEMBL3988442, “University of Dundee, Small-Polar-MMV Screening Library” (2021).

Mtb glucose medium: 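Phenotypic screen: M. tuberculosis growth, glucose 7H9 medium, 3 days; the read-out is not stated. Tested at 50 µM. Direction is inferred from retests: higher values go with more growth inhibition. About 69,000 compounds were tested under these conditions; 1.1% (about 760) showed 50% or more at least once.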
Mtb cholesterol medium: 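Growth of Mycobacterium tuberculosis over 4 days (cholesterol / DPPC medium with tyloxapol); the read-out is not stated. Tested at 50 µM. Higher reads as more growth inhibition (inferred: compounds with an IC50 in retests scored well above the rest). Size under these conditions: about 69,000 compounds, about 370 of them at 50% or above in at least one test.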

Each number is a percent effect as filed. How 0% and 100% were set is not recorded. Most values in the screen are low, and negative values occur. Many other results are left out here, so strong results are more common than in the screen. Two or more numbers in one place are separate tests of the same structure; such repeats can differ widely. A dash means the value is not listed here; it may have been measured.

Compound	Mtb glucose medium	Mtb cholesterol medium
Cc1cc2nc(SCC(=O)N3CCCC3)n(-c3ccccc3)c(=O)c2[nH]1	-5.749 & 3.952	-
CC(NC(=O)CN1CCN(Cc2ccc(Br)s2)CC1)c1ccccc1 (stereo not drawn)	-	-18.43
c1ccc2sc(CN3CCOC(Cn4cccn4)C3)nc2c1 (stereo not drawn)	7.818	-27.25
CCNc1cc2c(nn1)CCN(C(=O)C1COc3ccccc3O1)C2 (stereo not drawn)	17.07	7.398
COc1ncnc2c1CCN(c1cccc(F)c1)CC2	31.25 & 6.221	-
Cc1nc(N2CCCC2)nc2c1CCN(C(=O)CN(C)C)CC2.O=C(O)C(F)(F)F	-5.644 & -17.39	20.65
CCn1ncc2c1C(COC)CN(c1ncc(F)cn1)C2.O=C(O)C(F)(F)F.O=C(O)C(F)(F)F (stereo not drawn)	-9.96	-
COc1ccc(COCC(O)CN(C)c2ccc(C)cc2C)cc1 (stereo not drawn)	-	50.28
Cc1noc(C)c1CNCc1nn(-c2ccccc2)c2c1CCC2	3.476	-
CCS(=O)(=O)N1CCCCC1c1nc(C(C)C)no1 (stereo not drawn)	80.76	-
COc1c(Br)cccc1CCNC(=O)c1csnn1	63.29 & 39.08	-
COC(=O)c1ccc(OCCn2cnc(C#N)n2)cc1	3.725	-
CN(Cc1nc2ccccc2o1)CC1CCCN1c1cccnn1 (stereo not drawn)	2.313	-
O=C(NCN1CCc2ccccc2C1)c1cnccn1	-4.565	-
COc1ccc(OC)c(-n2cnnc2CCN)c1	7.986	-
[H][C@]12CCN(C(=O)c3cc(C)on3)C[C@@]1([H])[C@H](CN1CCCC1)OC2	19.08	-
O=C(CN1CCCC1Cn1cncn1)NCCOc1ccc(F)cc1 (stereo not drawn)	-1.062	-
Cn1cc(N2CC3(CCN(Cc4nccn4C)C3)CC2=O)cn1.O=C(O)C(F)(F)F (stereo not drawn)	-13.54	-
Cc1nnc(CN(C)CCOc2cccc(Cl)c2)o1	15.49	-
O=C(Cn1nnn(-c2cccs2)c1=O)N(CC1CCOC1)C1CC1 (stereo not drawn)	-4.54 & -5.325	-19.78
COC(=O)c1ccc(C(=O)N2CCCC(Nc3ccc(F)cc3)C2)cc1 (stereo not drawn)	-	1.276 & 27.83
CN(CCc1ccncc1)Cc1nccn1Cc1ccccc1	-12.02	-
Cc1cc(N2CCN(C(=O)Cc3ccc4c(c3)OCO4)CC2)cc(C)n1	-	82.53
CC(O)CN1CCN(C(=O)c2ccc(Br)o2)CC1 (stereo not drawn)	-9.381	-23.49
CC(C)c1nc(CSc2nnc(C3CC3)n2CC(N)=O)no1	-13.47	-
CN1CCC(N2Cc3nc(N)ncc3C2=O)CC1	37.74	-8.138
Cc1cccc(CN2CCN(C(=O)c3cc(C4CC4)[nH]n3)CC2)c1	68.76 & 58.57	66.4
CCc1noc(CSc2n[nH]c(-c3ccccn3)n2)n1	28.8 & 112.7	-
CCS(=O)(=O)c1ccc2c(c1)OCCCO2	-16.16	-0.3374
Cc1nn(C)c(C)c1C1CCCN1Cc1cccc(C(N)=O)c1 (stereo not drawn)	10.53	-
O=C(NCCNc1ccccn1)NC1CCCC1	1.314 & 3.309	-15.19
CCn1nc(C)c2nc(C(C)C)nc(NC)c21	-9.703	-
CS(=O)(=O)N1CCc2[nH]cnc2C12CCN(C(=O)c1cccnc1)CC2	-	-4.15 & -11.82
Cc1cc(S(=O)(=O)N2C[C@H](C3CC3)[C@@H](N)C2)c(C)s1	-12.61	-
NC1CCCCN(Cc2cc(-c3ccccc3OC(F)(F)F)no2)C1 (stereo not drawn)	50.09	-
Cc1cc(NCCN)nc(-c2ccccc2O)n1	102.1 & 35.74	-
Cc1nsc(C(=O)NCCc2cccs2)n1	54.99	47.14
N#Cc1cccc(S(=O)(=O)N2CCCCC2CCN2CCCC2=O)c1 (stereo not drawn)	13.42	-
CCSCCNc1nc2c(s1)c(C)nn2C	20.94 & 15.44	-
Cc1nn(C)c(C)c1C(=O)NCc1cc(N(C)C)nc2ccccc12	-11.22	-14.85
CSC1=Nc2c(cnn2-c2ccc(C)cc2)C2=NCCCN12	-	56.76
COc1ccc(CN2CCC(O)(CN3CCCCC3)C2)c(C)c1 (stereo not drawn)	2.125	-
CCc1noc(CN2CCOC3(CCCC3)C2)n1	14.89	-
CCOCCCC(=O)Nc1ccc(OCc2noc(C3CC3)n2)cc1	7.434 & -7.877	-
CC(Oc1ccc2c(c1)OCO2)C(=O)N1CCC(N2CCCC2)CC1 (stereo not drawn)	5.198	-
COCCNC(=O)CN1CC=C(n2c(C)nc(=O)c3ccccc32)CC1	22.71	-
C1CC(c2noc(C3CC3)n2)CN(Cc2noc(C3CC3)n2)C1 (stereo not drawn)	20.96	9.916
COCc1cc(N2CCc3onc(-c4cccc(OC)c4)c3C2)ncn1	-7.941	-
CCC(CO)NCc1ccc(-c2ccc(F)c(Cl)c2)o1.Cl (stereo not drawn)	36.25 & 26.31	36.73
CCSC1=Nc2c(cnn2-c2ccc(Cl)cc2)C2=NCCCN12	82.44	55.74
Fc1ccc(CN2CCCC(c3cc4ncccc4[nH]3)C2)cc1 (stereo not drawn)	-	44.6 & 53.67
Cc1c(C(=O)NCCC(=O)N2CCOCC2)sc2ccc(F)cc12	6.806	-
O=C(c1cnn(-c2ccccc2)c1)N1CCN(c2cnccn2)CC1	2.545 & 19.8	-7.531
[H][C@@]12CCN(C[C@@H]1CC)[C@@H](CNCc1ccc(OC)cc1)C2	-7.376 & 7.121	13.47
Cn1nc(CN2CCCN(C3CCCC3)CC2)c2c(Cl)cccc21	63.78	-
CCN1CC(COC(=O)c2ccc(N(C)C)cc2F)CC1=O (stereo not drawn)	4.26	-
Cc1noc(C)c1CCC(=O)N1CCn2cccc2C1C (stereo not drawn)	1.714 & 59.61	-
CCCc1nnc(NC2CCN(C3CCCC3)CC2)o1	20.57	-
CC(C)COC(C)C(=O)NCc1ccccc1 (stereo not drawn)	3.013	21.82
COc1cccc(CNC(=O)Nc2ccc3[nH]nnc3c2)c1OC	-5.475 & 53.38	-
CCc1nc(C2CCCN(C(=O)c3ccc(F)cc3)C2)no1 (stereo not drawn)	14.78	-1.099
O=C(NCc1ccccn1)Nc1ccc2[nH]nnc2c1	12.08 & -4.309	-
O=C(Cc1cccc(F)c1)NCCNCc1cccnc1	-1.96	-
[H][C@]12CC[C@]([H])(CN(Cc3snnc3C)C1)N(Cc1ccccc1)C2	-12.07	-
Cc1nc(CNC(=O)CC2C(=O)NCCN2CCC(C)C)n[nH]1 (stereo not drawn)	-15.8	-
CC[C@@]1(O)CCN(c2ncc(Cl)cc2F)C[C@H]1O	13.39	8.313
Cc1nc(NC(=O)COCC(F)(F)F)ccc1Br	54.39	-
CCc1ccc(OCC(=O)N2CCN(CC)CC2)cc1	12.71 & 16.95	22
CN(C)CC(C)(C)Cn1cnc(-c2ccccc2)c1-c1ncc[nH]1	-9.114 & -7.055	-
Cc1nc(CN2CCc3nc(NC(C)C)nc(C)c3C2)cs1	49.25 & 35.45	-
Cn1c(CNCC2CCCN2c2cccnn2)nc2ccccc21 (stereo not drawn)	26.99	-
O=C(C1CC2(CCNCC2)CN1)N1CCN(c2ccccc2)CC1 (stereo not drawn)	-18.11	-
Cc1ccc(NC(C)C(=O)NCc2cccs2)cc1C (stereo not drawn)	-	14.59
CCOc1ccc2nc(CN3CCC(CN)C3)ccc2c1 (stereo not drawn)	54.76	-
Cc1cc(C2CCC2)nc(N(C)CCc2ccccn2)n1	54.45	-
Cc1ccc(-c2cc(C(=O)NCCN3CCCS3(=O)=O)[nH]n2)cc1	-10.85	-44.53
Cc1cc(C[C@@H]2COC[C@H]2NCc2ccc(C(C)C)cc2)on1.O=C(O)CC(O)(CC(=O)O)C(=O)O	49.64	48.35

For reference, 6 entries once more:

Result for Cc1nc(CN2CCc3nc(NC(C)C)nc(C)c3C2)cs1 was Mtb glucose medium: 49.25% & 35.45%.
Result for COCc1cc(N2CCc3onc(-c4cccc(OC)c4)c3C2)ncn1 was Mtb glucose medium: -7.941%.
Result for CN(CCc1ccncc1)Cc1nccn1Cc1ccccc1 was Mtb glucose medium: -12.02%.
Result for CN(Cc1nc2ccccc2o1)CC1CCCN1c1cccnn1 (stereo not drawn) was Mtb glucose medium: 2.313%.
Result for Cc1nc(NC(=O)COCC(F)(F)F)ccc1Br was Mtb glucose medium: 54.39%.
Result for CC(O)CN1CCN(C(=O)c2ccc(Br)o2)CC1 (stereo not drawn) was Mtb glucose medium: -9.381%; Mtb cholesterol medium: -23.49%.